PubChem BioAssay AID504761 | Drosophila RNAi Screening Center, 2011
The screen tested about 22,000 reagents; below is an unselected part of those with a known target gene and a result. Of all reagents, 116 (0.52%) got an active call. 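Calls depend on retest data that are not deposited; infection was ranked per plate without normalising between plates; the unit of the infection score is not given.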 Raw values vary from plate to plate and are shown uncorrected. Entries without a mark were called inactive. Names joined by + are all predicted targets of the reagent. Reagent sequences are not shown. The record does not give: the amount of reagent, the time to read-out.

Assay: 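Fly genes whose silencing reduces dengue virus type 2 infection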 (primary screen)
Cell system: D.Mel-2 cells from Drosophila
Knock-down reagent: long dsRNA against Drosophila genes
Conditions: infection with dengue virus type 2; dose and infection time not stated
Measurement: 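Cells stained for dengue envelope protein and imaged; percent of infected cells per well on duplicate plates, ranked by infection, with stained nuclei counted for cell number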
Direction: infection score: higher = more virus-infected cells; cell count: higher = more cells in the well
Hit rule: 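Very low infection ranking in both replicate wells (chance probability at most 0.065), then a retest showing infection dropped 1.5-fold or more at p below 0.05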
Meaning of the calls: active = confirmed: knock-down lowers infection; inactive = not picked or not confirmed

| target | DRSC id | infection score, replicate 1 | infection score, replicate 2 | cell count, replicate 1 | cell count, replicate 2 |
| --- | --- | --- | --- | --- | --- |
| DMAP1 | DRSC06044 | 29.9 | 26 | 4944 | 4277 |
| DMAP1 | DRSC26559 | 13.3 | 13.9 | 5390 | 5040 |
| CG4073 | DRSC15542 | 1.83 | 6 | 6235 | 6001 |
| Slob (retired record) | DRSC03436 | 6.75 | 2.56 | 6286 | 6823 |
| CG9095 | DRSC20150 | 11.8 | 7.28 | 7030 | 7157 |
| INPP5E | DRSC09723 | 2.42 | 10.1 | 6606 | 6538 |
| CG32750 | DRSC18848 | 0.93 | 1.77 | 6154 | 5987 |
| CG14711 + Zaf1 | DRSC14934 | 2.48 | 4.06 | 6291 | 5714 |
| CG14711 + Zaf1 | DRSC23982 | 6.27 | 13.4 | 6359 | 6005 |
| CG42518 + MED9 | DRSC06917 | 18 | 23.9 | 5767 | 5352 |
| CG5107 | DRSC15716 | 1.98 | 3.2 | 6655 | 6223 |
| CG31460 | DRSC14370 | 4.58 | 14.7 | 6075 | 6332 |
| kirre | DRSC18785 | 11.5 | 17.5 | 5521 | 2582 |
| kirre | DRSC24733 | 1.86 | 1.67 | 6006 | 6281 |
| Prp8 | DRSC07293 | 50.8 | 61.8 | 1735 | 2449 |
| Cyp6a21 | DRSC07381 | 20.1 | 13.2 | 5149 | 6033 |
| Men | DRSC12924 | 11.6 | 8.28 | 5790 | 4962 |
| Men | DRSC16738 | 9.87 | 6.09 | 6031 | 6107 |
| Men | DRSC22694 | 4.02 | 6.18 | 6642 | 6080 |
| D1 | DRSC16638 | 2.47 | 4.01 | 6245 | 6750 |
| CG33330 (retired record) | DRSC13053 | 7.82 | 10.6 | 4743 | 3922 |
| CG33330 (retired record) | DRSC15495 | 6.4 | 6.89 | 6454 | 6952 |
| CG33330 (retired record) | DRSC27452 | 10.6 | 5.98 | 6632 | 6333 |
| CCHa2-R | DRSC04870 | 6.79 | 8.44 | 6393 | 6898 |
| CCHa2-R | DRSC04871 | 4.56 | 11.3 | 6488 | 6502 |
| tsl | DRSC17090 | 2.35 | 1.97 | 6902 | 6636 |
| sev | DRSC20372 | 7.07 | 5.8 | 6899 | 6845 |
| ec | DRSC18658 | 7.22 | 6.94 | 1828 | 6987 |
| ec | DRSC23902 | 1.02 | 0.78 | 6586 | 6758 |
| muskelin | DRSC07273 | 5.71 | 10.1 | 6639 | 6398 |
| Brf | DRSC14166 | 6.68 | 3.4 | 5181 | 5357 |
| Brf | DRSC14167 | 2.87 | 7.91 | 5994 | 5231 |
| RpS19b | DRSC15773 | 9.64 | 7.6 | 3961 | 5266 |
| CG30269 | DRSC04158 | 9.55 | 13.9 | 6814 | 6572 |
| CG3604 | DRSC00618 | 1.18 | 1.77 | 6542 | 6736 |
| CG10984 | DRSC09817 | 13.5 | 10.1 | 5915 | 5344 |
| CG10984 | DRSC28387 | – | – | 348 | 432 |
| btd | DRSC18747 | 9.76 | 6.2 | 6720 | 6759 |
| btd | DRSC29060 | 14.5 | 12.2 | 5357 | 3209 |
| Ir60e | DRSC04227 | 4.96 | 4.13 | 6728 | 6490 |
| CG34281 | DRSC14807 | 2.02 | 0.37 | 5945 | 6167 |
| CG34281 | DRSC30111 | 3.41 | 5.85 | 6741 | 5885 |
| pit | DRSC17025 | 5.63 | 1.54 | 6338 | 6311 |
| pit | DRSC22798 | 0.76 | 9.81 | 5670 | 4864 |
| pit | DRSC28254 | 13.5 | 13.3 | 2290 | 2161 |
| CG1971 | DRSC15406 | 3.41 | 0.69 | 5870 | 6222 |
| CG1971 | DRSC28390 | 4.41 | – | 1631 | 386 |
| CG2528 | DRSC03724 | 4.1 | 1.95 | 6558 | 6610 |
| Ser12 | DRSC00786 | 1.99 | 2.22 | 5726 | 6434 |
| twi | DRSC23185 | 0.99 | 9.18 | 5659 | 6599 |
| twi | DRSC26056 | 5.34 | 1.67 | 6984 | 6629 |
| CG2574 | DRSC19862 | 0.71 (active) | 1.04 | 6660 | 6438 |
| CG14322 | DRSC14801 | 1.8 | 1.18 | 6233 | 6511 |
| CG7295 | DRSC00699 | 14.1 | 10.9 | 6768 | 6036 |
| Cam | DRSC07353 | 2.65 | 5.39 | 6495 | 6792 |
| Cam | DRSC07354 | – | 6.96 | 477 | 6096 |
| Trx2 | DRSC03622 | 25 | 10.8 | 5583 | 6031 |
| Trx2 | DRSC28288 | 18.9 | 4.11 | 4824 | 1751 |

Individual results from above:
Under “cell count, replicate 1”, CG5107 [DRSC15716] has 6655
Value for ec [DRSC23902] in “cell count, replicate 1”: 6586
CG33330 (retired record) [DRSC13053], cell count, replicate 2: 3922
